Measured values from several laboratories, pooled; numbers as filed in NIAID ChemDB.

Shared fields: tests in culture; organism: HIV-1; cells: C8166; measure: EC50

a–b is a range or a potency band.

compound | strain or isolate | changes | read by | value
CCN1c2ncc(CCOc3ccc(-c4ccc(C)[n+]([O-])c4)cc3C)cc2C(=O)N(C)c2cccnc21 | IIIB |  | p24 | <0.01 µM
O=C(Oc1ccc(Cl)c2c1C(=O)c1ccccc1C2=O)c1ccccc1 | IIIB |  | syncytia | >200 µg/mL
COc1cc2c(c(OC)c1OC)-c1c(cc(OC(C)=O)c(OC)c1OC)[C@H](OC)[C@@H](C)[C@@H](C)C2 |  |  | MTT | 2.26 µg/mL
CN(Cc1ccc2ccccc2n1)Cc1ncccc1CCC#N | IIIB |  | syncytia | 15 µM
CCN1c2ncc(CCOc3ccc(-c4ccc(Cl)c(CC(=O)O)c4)cc3C)cc2C(=O)N(C)c2cccnc21 |  | RT-K103N Y181C | p24 | 0.01–0.05 µM
Cc1cc(OCCCN(C)C)ccc1NC(=O)Cc1ccc(Cl)cc1C(=O)c1ccccc1 | RF |  | p24 | 0.0062 µM
CC(=O)Oc1ccc(Cl)c2c1C(=O)c1ccccc1C2=O | IIIB |  | syncytia | 9.81 µg/mL
C=C1CC[C@@H]2[C@](C)(CO)[C@H](O)CC[C@@]2(C)[C@@H]1CC(OC(=O)c1ccc([N+](=O)[O-])cc1)C1CCOC1=O |  |  | cytopathic effect | 1.466 µM
CS(=O)(=O)Oc1ccc(Cl)c2c1C(=O)c1ccccc1C2=O | IIIB |  | syncytia | 17.9 µg/mL
C=C(C)[C@@]12OC3(C)O[C@@H]1[C@@H]1[C@H](OC(=O)c4ccccc4)C4(C)O[C@@]5([C@@H]4OC(=O)c4ccccc4)[C@@H](OC(C)=O)[C@@H](C)C[C@H]5[C@@]1(O)[C@H](C)[C@@H]2O3 |  |  | syncytia | 2.19 µg/mL
CC(C)(C)OC(=O)N[C@H](CN[C@@H](CC1CC1)C(=O)N[C@@H](CCC(=O)O)C(=O)NCCCc1ccccc1)Cc1ccccc1 | IIIB |  | syncytia | <20 µg/mL
Cc1cccnc1CN(C)Cc1nc2ccccc2[nH]1 | IIIB |  | syncytia | 2.126 µM
Cc1cn([C@H]2C[C@H](N=[N+]=[N-])[C@@H](CO)O2)c(=O)[nH]c1=O | IIIB |  | MTT / ELISA | 0.0025 µg/mL
CCN1c2ncc(CCOc3ccc(-c4ccc(C(=O)O)cc4)cc3F)cc2C(=O)N(C)c2cccnc21 | IIIB |  | p24 | <0.01 µM
C=C(C)[C@@]12OC3(C)O[C@@H]1[C@@H]1[C@H](OC(=O)c4ccccc4)C4(C)O[C@@]5([C@@H]4OC(C)=O)[C@@H](OC(=O)c4ccccc4)[C@@H](C)C[C@H]5[C@@]1(O)[C@H](C)[C@@H]2O3 |  |  | syncytia | 44.3 µg/mL
CN(Cc1ncccc1CCC#N)Cc1nccc2ccccc12 | IIIB |  | syncytia | 2.811 µM
CCN1c2ncc(CCOc3ccc(NC(=O)c4ccccc4C(=O)O)cc3C)cc2C(=O)N(C)c2cccnc21 |  | RT-K103N Y181C | p24 | 0.01–0.05 µM
COc1cc(O)c(CC=C(C)C)c(O)c1C(=O)/C=C/c1ccc(O)cc1 | IIIB |  | syncytia | 2 µM
Cc1cn([C@H]2C[C@H](N=[N+]=[N-])[C@@H](CO)O2)c(=O)[nH]c1=O | IIIB |  | syncytia | 0.01145 µM
C/C(=C\CC/C(C)=C/C(=O)O)C/C=C/[C@@]1(C)CCC(C(C)(C)O)O1 | IIIB |  | cytopathic effect / syncytia | 1.03 µM
CN(Cc1nc2ccccc2[nH]1)Cc1ncccc1CCC(=O)N(C)C | IIIB |  | syncytia | 21.2 µM
C=C1CC[C@@H]2[C@](C)(CO)[C@H](O)CC[C@@]2(C)[C@@H]1CC(OC(=O)/C=C/c1ccc2c(c1)OCO2)C1CCOC1=O |  |  | cytopathic effect | 1.505 µM
CCN(CC)CCOc1ccc(NC(=O)COc2ccccc2C(=O)c2ccc(OC)cc2)cc1 | RF |  | syncytia | 0.6007 µM
CCCCCCCCCC[N+](C)(C)CCCNCc1c(O)cc2c(c1O)-c1cc(ccc1O)[C@H]1NC(=O)[C@@H]3NC(=O)C4NC(=O)[C@@H](Cc5ccc(c(Cl)c5)Oc5cc3cc(c5O)Oc3ccc(cc3Cl)[C@@H](O)[C@H](NC1=O)C(=O)N[C@@H]2C(=O)O)NC(=O)[C@H](N)c1ccc(O)c(c1)Oc1cc(O)cc4c1 | IIIB |  | syncytia | 6.6 µM
CC(=O)O[C@H]1[C@H](OC(C)=O)[C@]2(C)O[C@@]3(COC(=O)C3)[C@@H](OC(=O)c3ccccc3)C[C@]2(C)[C@H]2CCC[C@]3(CO3)[C@]12C | IIIB |  | MTT / ELISA | 67.27 µg/mL
CCN(CC)CCOc1ccc(NC(=O)COc2cc(OC)ccc2C(=O)c2ccccc2)cc1 | RF |  | p24 | 0.0273 µM
C=C1CC[C@H]2[C@@](C)(CC/C(=N\O)[C@@]2(C)CO)[C@@H]1/C=C/C1=CCOC1=O |  |  | cytopathic effect | 40.9 µM
O=C(COc1ccc(Cl)cc1C(=O)c1ccccc1)c1cc2ccccc2[nH]1 | RF |  | p24 | >12.8 µM
CN(Cc1nc2ncccc2[nH]1)Cc1ncccc1CCC#N | IIIB |  | syncytia | 77.4 µM
CCN1c2ncc(CCOc3ccc(-c4cnc[nH]4)cc3C)cc2C(=O)N(C)c2cccnc21 |  | RT-K103N Y181C | p24 | <0.01 µM
CCCCCCCCCCCC[C@@H]1OC(=O)[C@@H](C)[C@@H]1C(=O)O | IIIB |  | cytopathic effect / syncytia | 0.12 µM
C=C1CC[C@@H]2[C@](C)(CO)[C@H](O)CC[C@@]2(C)[C@@H]1CCC1C(=O)NCC1O |  |  | cytopathic effect | >569 µM
O=C(O)c1cn(-c2ccccc2)c2ccc(Cc3cccc(Cl)c3F)c(O)c2c1=O | IIIB |  |  | 0.31 µM
CN(Cc1nc2ccccc2[nH]1)Cc1ncccc1CCC(=O)NC1CC1 | IIIB |  | syncytia | 14.4 µM

Conditions beyond the fields shown may differ between rows. ECn is the concentration giving n% inhibition of infection, replication or growth. An empty or dashed field is not shown.